From patent US20090281028A1

Columns and labels:
[1] = target: human Kv1.1 channel (human) (UniProt Q09470); assay: cell-based or functional assay
[2] = target: human Kv1.3 channel (human) (UniProt P22001); assay: cell-based or functional assay

Substance	hKv1.1: IC50 [pM], block of current, whole cell patch clamp [1]	fold change in Kv1.1/Kv1.3 selectivity against Fc-L10-OSK1 [1]	fold change in potency against Fc-L10-OSK1 [2]	fold loss of potency (IC50 of Kv1.3 current block) against synthetic OSK1 [2]	hKv1.3: IC50 [pM], block of current, whole cell patch clamp [2]	selectivity ratio hKv1.1/hKv1.3 (IC50) [2]	Kv1.3 IC50 by IWQ (nM), IonWorks planar patch clamp, CHO/Kv1.3 cells [2]
Fc-L10-OSK1[K7S, E16K, K20D] (Fc fusion)	10000 pM						
Fc-L10-OSK1[K7S] (Fc fusion)	100000 pM	1.3 fold	2 fold	10 fold	372 pM	269 fold	
CHO-derived Fc-L10-ShK[1-35] R1Q (Fc fusion)							2.2 nM
